A mixed list of measured activities; the numbers were collected in NIAID ChemDB.

All rows: tests in culture; species: Mycobacterium kansasii

A number after MIC or MFC names an inhibition level or a share of isolates. An empty or dashed field is not shown. Lines come from different laboratories, so protocols vary.

smiles	strain or isolate	read by	setting	measure	result
O=C(Oc1ccc(Cl)cc1C(=O)Nc1cccc(Cl)c1)c1cnccn1	235/80	-	7 d	MIC	2 µM
Fc1ccc2oc(=S)n(-c3ccccc3)c(=S)c2c1	My 235/80	-	14 d	MIC	4 µM
NNC(=O)c1ccncc1	235/80	-	14 d	MIC	>250 µM
O=c1oc2ccc(F)cc2c(=S)n1-c1ccc(F)cc1	6509/96	-	14 d	MIC	8 µM
O=C(Nc1ccc(C(F)(F)F)cc1)c1cc(Cl)ccc1OS(=O)(=O)c1ccccc1	235/80	-	7 d	MIC	125 µM
O=C(NNC(=O)c1ccncc1)Nc1ccc(Br)c(C(F)(F)F)c1	My 235/80	broth dilution	21 d	MIC100	>125 µM
Cc1ccc(-n2c(=O)oc3ccc(C)cc3c2=S)cc1	My 235/80	-	21 d	MIC	4 µM
Fc1cc(Br)ccc1Nc1nnc(-c2ccncc2)o1	My 6509/96	broth dilution	7 d	MIC100	>125 µM
O=c1oc2ccc(F)cc2c(=S)n1-c1cccc(F)c1	My 235/80	-	14 d	MIC	16 µM
Clc1ccc(Nc2nnc(-c3ccncc3)o2)cc1Cl	My 235/80	broth dilution	21 d	MIC100	>125 µM
O=C(Nc1ccc(Cl)cc1)c1cc(Cl)ccc1OS(=O)(=O)c1ccccc1	6509/96	-	21 d	MIC	8 µM
Fc1cc(Nc2nnc(-c3ccncc3)o2)ccc1Br	My 235/80	broth dilution	14 d	MIC100	>125 µM
COc1ccc2oc(=O)n(-c3cccc(Cl)c3)c(=S)c2c1	6509/96	-	21 d	MIC	32 µM
O=C(NC1CCCCC1)N(C(=O)c1cnccn1)C1CCCCC1	6509/96	-	21 d	MIC	500 µM
CCCCCCCCc1ccc(NC(=O)NNC(=O)c2ccncc2)cc1	My 235/80	broth dilution	14 d	MIC100	500 µM
O=C(Oc1ccc(Cl)cc1C(=O)Nc1ccc(Br)cc1)c1cnccn1	235/80	-	7 d	MIC	2 µM
O=C(Nc1ccc(Cl)cc1)c1ccc(Cl)cc1OS(=O)(=O)c1ccccc1	6509/96	-	7 d	MIC	8 µM
O=C(Oc1cc(Cl)ccc1C(=O)Nc1cccc(Cl)c1)c1cnccn1	6509/96	-	14 d	MIC	4 µM
O=C(Nc1ccc(C(F)(F)F)cc1)c1ccc(Cl)cc1OS(=O)(=O)c1ccccc1	235/80	-	21 d	MIC	4 µM
COc1ccc(NC(=O)NNC(=O)c2ccncc2)cc1	My 235/80	broth dilution	21 d	MIC100	>125 µM
O=C(Oc1ccc(Cl)cc1C(=O)Nc1ccc(Cl)cc1)c1cnccn1	235/80	-	21 d	MIC	4 µM
Cc1ccc(NC(=O)NNC(=O)c2ccncc2)cc1	My 6509/96	broth dilution	7 d	MIC100	62.5 µM
O=C(Oc1cc(Cl)ccc1C(=O)Nc1cccc(Br)c1)c1cnccn1	235/80	-	14 d	MIC	4 µM
O=C(NNC(=O)c1ccncc1)Nc1ccc(F)c(C(F)(F)F)c1	My 235/80	broth dilution	7 d	MIC100	125 µM
O=C(Nc1cccc(F)c1)c1cc(Cl)ccc1OS(=O)(=O)c1ccccc1	6509/96	-	7 d	MIC	16 µM